Experimental data reported in paper PMC10818719 (Viruses, 2023).
Where two headings read alike, the source gives them in different places.

System: MDBK cells

CN(C)c1ccc2nc3ccc(=[N+](C)C)cc-3sc2c1 [MB, Methylene blue]
Hill slope (m) (24 h incubation): 3.98 | Hill slope (m) (48 h incubation): 1.00 | Hill slope (m) (72 h incubation): 2.52

Cc1cc2nc3ccc(N(C)C)cc3[s+]c2cc1N.[Cl-] [TBO, toluidine blue O]
Hill slope (m) (24 h incubation): 1.88 | Hill slope (m) (48 h incubation): 0.098 | Hill slope (m) (72 h incubation): 0.075
